A mixed list of measured activities; the numbers were collected in NIAID ChemDB.

Shared fields: tests in culture; agent: HIV-1

Lines come from different laboratories, so protocols vary.

compound | read by | tested at | cells | setting | read-out | mutations | strain or isolate | value
Cc1cc(S(N)(=O)=O)ccc1NC(=O)COc1ccc(Cl)cc1C(=O)c1cc(F)cc(C(F)(F)F)c1 | β-galactosidase |  | HeLa + HELA CD4+ |  | fold resistance | RT-Y181C | HXB2 | ~1
O=C1Nc2ccc(Cl)cc2[C@@](/C=C/C2CC2)(C(F)(F)F)N1 |  |  |  |  | EC90 | RT-Y181C |  | <0.012 µM
O=C(NCCc1ccccc1)Nc1ccn[nH]1 | cytopathic effect / XTT | 100 µg/mL | MT-4 |  | inhibition |  |  | 0%
CC(C)[C@H](NC(=O)OCc1ccccn1)C(=O)N[C@@H](Cc1ccccc1)[C@@H](O)C[C@H](Cc1ccccc1)NC(=O)OCc1cccnc1 | p24 |  | MT-4 |  | EC95 |  | NL4-3 | 0.8 µM
Cc1cc(C#N)cc(C(=O)c2cc(Cl)ccc2OCC(=O)Nc2ccc(OCCCN3CC=CC3)cc2C)c1 | β-galactosidase |  | HeLa + HELA CD4+ |  | fold resistance | RT-V106I Y181C | HXB2 | ~10
CC(C)C1=C2[C@H]3CC[C@@H]4[C@@]5(C)CC[C@H](OC(=O)[C@H]6C[C@@H](C(=O)O)C6(C)C)C(C)(C)[C@@H]5CC[C@@]4(C)[C@]3(C)CC[C@@]2(CCNCC(C)(C)NC(=O)c2ccc(Cl)cc2OCCN2CCCC2)CC1=O | p24 / ELISA |  | MT-2 |  | EC50 |  | 92HT599 | <1 µM
CCC(=O)c1ccc(F)c([C@@H]2C[C@@H]2NC(=O)Nc2ccc(C#N)cn2)c1O | β-galactosidase / luminescence |  | TZM-bl |  | fold resistance | NNRTI-resistant (RT Y188C) | LAI | 0.3
CN(C)C(=O)C(=O)N(C)C1CN(S(C)(=O)=O)CCn2c1nc(C(=O)NCc1ccc(F)cc1)c(O)c2=O | p24 |  | MT-4 |  | EC95 |  |  | <1 µM
O=C1Nc2ccc(Cl)cc2[C@@](C#CC2CC2)(C(F)(F)F)N1 |  |  |  |  | EC90 | RT-K103N P225H |  | ~0.085 µM
CC(C)C1=C2[C@H]3CC[C@@H]4[C@@]5(C)CC[C@H](OC(=O)[C@H]6C[C@@H](C(=O)O)C6(C)C)C(C)(C)[C@@H]5CC[C@@]4(C)[C@]3(C)CC[C@@]2([C@@H](O)CNC(=O)C(F)(F)NC(=O)c2ccc(Cl)cc2)CC1=O | p24 / ELISA |  | MT-2 |  | EC50 |  | 92HT599 | <1 µM
C[C@H]1[C@H](O)[C@@H](C)/C=C/C=C/C=C/C=C/C=C/C=C/C=C/[C@H](O[C@@H]2O[C@H](C)[C@@H](O)[C@H](N)[C@@H]2O)C[C@@H]2O[C@](O)(C[C@@H](O)C[C@@H](O)CC[C@H](O)[C@@H](O)C[C@@H](O)CC(=O)O[C@H]1C)C[C@H](O)[C@H]2C(=O)O | p24 / RT activity | 9.2 µM | PBMC |  | inhibition |  | 92BR014 CLADE B X4/R5 (SI) | 90%
C[C@H]1CN(C(=O)c2ccccc2)CCN1C(=O)C(=O)c1c[nH]c2cccc(Br)c12 | luciferase | 10 µM | HeLa + HELA CD4+/CCR5 |  | inhibition |  |  | 58%
CC(C)C1=C2[C@H]3CC[C@@H]4[C@@]5(C)CC[C@H](OC(=O)[C@H]6C[C@@H](C(=O)O)C6(C)C)C(C)(C)[C@@H]5CC[C@@]4(C)[C@]3(C)CC[C@@]2(CC(=O)NC2(CNC(=O)c3ccc(Cl)cc3)COC2)CC1=O | p24 / ELISA |  | MT-2 |  | EC50 |  | 92HT599 | <1 µM
Cc1cc2[nH]cnc2cc1NC(=O)COc1ccc(Cl)cc1C(=O)c1cc(F)cc(C(F)(F)F)c1 | β-galactosidase |  | HeLa + HELA CD4+ |  | fold resistance | RT-G190E | HXB2 | ~1
O=C(NCCc1ccccc1)Nc1nc2ccc(F)cc2s1 | RT activity | 0.1 µg/mL | MT-4 |  | inhibition |  |  | 1%
O=C(C(=O)N1CCN(C(=O)c2cc(Br)ccc2S)CC1)c1c[nH]c2cccc(F)c12 | luciferase | 10 µM | HeLa + HELA CD4+/CCR5 |  | inhibition |  |  | >98%
CC(C)C1=C2[C@H]3CC[C@@H]4[C@@]5(C)CC[C@H](OC(=O)[C@H]6C[C@@H](C(=O)O)C6(C)C)C(C)(C)[C@@H]5CC[C@@]4(C)[C@]3(C)CC[C@@]2(CCNC(=O)c2nccn2C)CC1=O | p24 / ELISA |  | MT-2 |  | EC50 |  | 92HT599 | <1 µM
COc1ccnc2[nH]cc(C(=O)C(=O)N3C4CC3CN(C(=O)c3ccccc3)C4)c12 | luciferase |  | TZM-bl |  | EC99 |  | SF162 | >>250 µM
CC(C)CN(CC(O)CC(=O)N1CSC[C@@H]1C(=O)NC(C)(C)C)S(=O)(=O)c1ccccc1 | p24 |  | CEM |  | EC90 |  | IIIB | 1 µM
CC(C)C1=C2[C@H]3CC[C@@H]4[C@@]5(C)CC[C@H](OC(=O)[C@H]6C[C@@H](C(=O)O)C6(C)C)C(C)(C)[C@@H]5CC[C@@]4(C)[C@]3(C)CC[C@@]2(CC(=O)NCC2CCCCC2)CC1=O | p24 / ELISA |  | MT-2 |  | EC50 |  | 92HT599 | <1 µM
C[C@@H]1CN(C(=O)c2cccc(N)c2)CCN1C(=O)C(=O)c1c[nH]c2c(F)ccc(F)c12 | luciferase | 10 µM | HeLa + HELA CD4+/CCR5 |  | inhibition |  |  | >98%
Cc1nnc(CN2CCn3c(nc(C(=O)NCc4ccc(F)cc4)c(O)c3=O)C2(C)C)o1 | p24 |  | MT-4 |  | EC95 |  |  | <1 µM
Nc1nc(NC2CC2)c2ncn([C@H]3C=C[C@@H](CO)C3)c2n1 | p24 |  | PBMC |  | EC90 |  | NL-XM WT | 4.5 µM
Cc1ccc(-c2ccc3c(c2)C=C(C(=O)Nc2ccc(C[N+](C)(C)C4CCOCC4)cc2)CCC3)cc1 | p24 | 1 µM | PBMC |  | inhibition |  | Du422 CLADE C | 100%
O=C(NCCc1ccccc1)Nc1nc2ccccc2s1 | cytopathic effect / XTT | 100 µg/mL | MT-4 |  | inhibition |  |  | 41–100%
COc1ccnc2[nH]cc(C(=O)C(=O)N3CCN(C(=O)c4ccccc4)C[C@H]3C)c12 | luciferase |  | TZM-bl |  | EC99 |  | QH0692 | 5.2 µM
Nc1nc(=O)n([C@H]2C=C[C@@H](CO)O2)cc1F | p24 |  | PBMC |  | EC90 |  | NL-XM WT | 1.7 µM
O=C(C(=O)N1CCN(C(=O)c2ccccc2)CC1)c1c[nH]c2cc(Cl)c(F)cc12 | luciferase | 10 µM | HeLa + HELA CD4+/CCR5 |  | inhibition |  |  | 60%
CC(=O)N1CCn2c(nc(C(=O)NCc3ccc(F)cc3)c(O)c2=O)C1CN(C)C | p24 |  | MT-4 |  | EC95 |  |  | <50 µM
CC1(C)[C@@H](O[C@H]2O[C@H](C(=O)O)[C@@H](O)[C@H](O)[C@H]2O[C@@H]2O[C@H](C(=O)O)[C@@H](O)[C@H](O)[C@H]2O)CC[C@]2(C)[C@H]3C(=O)C=C4[C@@H]5C[C@@](C)(C(=O)O)CC[C@]5(C)CC[C@@]4(C)[C@]3(C)CC[C@@H]12 | virus yield | 1200 µM | MOLT-4 | 9 d | inhibition |  | IIIB | 93.5%
CC(C)(C)OC(=O)Nc1ccc(C(=O)N2CCN(C(=O)C(=O)c3c[nH]c4cccc(Cl)c34)CC2)cc1 | luciferase | 10 µM | HeLa + HELA CD4+/CCR5 |  | inhibition |  |  | 93%
COc1ccc(S(=O)(=O)N(CC(C)C)C[C@@H](O)CCN(CC2CCCC2)S(=O)(=O)Cc2csc(C(C)C)n2)cc1 | p24 |  | CEM |  | EC90 |  | IIIB | 1 µM
C=CCCCC[C@H](NC(=O)c1cccc(O)c1OCCC=C)[C@H](O)CN(CC(C)C)S(=O)(=O)c1ccc(OC)cc1 | cytopathic effect / MTT |  | MT-2 |  | EC75 |  | LAI | >1 µM
Cc1ccc(C2CC2)c(-c2cc(F)c3c(c2C)CCCO3)c1[C@H](OC1CC1)C(=O)O | p24 / luminescence |  | MT-4 |  | fold resistance | A128T | NL4-3 | 4
COc1cccc2c(C(=O)C(=O)N3CCN(C(=O)c4ccccc4)CC3)c[nH]c12 | luciferase | 10 µM | HeLa + HELA CD4+/CCR5 |  | inhibition |  |  | >98%
Cc1ccc(C2CC2)c(-c2ccc3c(c2)CCCO3)c1[C@H](OC(C)(C)C)C(=O)O | luminescence |  | MT-4 |  | fold resistance | INSTI-resistant (IN-N155H) | NL4-3 | 1
CC(C)C1=C2[C@H]3CC[C@@H]4[C@@]5(C)CC[C@H](OC(=O)[C@H]6C[C@@H](C(=O)O)C6(C)C)C(C)(C)[C@@H]5CC[C@@]4(C)[C@]3(C)CC[C@@]2(CCNCC2CCCC2)CC1=O | p24 / ELISA |  | MT-2 |  | EC50 |  | 92HT599 | <1 µM
Cc1cc(S(N)(=O)=O)ccc1NC(=O)COc1ccc(Cl)cc1C(=O)c1cccc(C#N)c1 | β-galactosidase |  | HeLa + HELA CD4+ |  | fold resistance | RT-V106I Y181C | HXB2 | ~10
O=C1NC(=S)N[C@@H]1c1ccc(-c2ccccc2)cc1 | cytopathic effect / XTT | 10 µg/mL | MT-4 |  | inhibition |  |  | 0%
CC(C)=CCOc1cc(NC(=S)c2ccsc2C)ccc1Cl | p24 |  | CEM + CEM-SS |  | fold resistance | RT-L100I | NL4-3 | 33
CC(C)=CCOc1cc(NC(=S)c2ccsc2C)ccc1Cl | cytopathic effect / XTT |  | CEM + CEM-SS |  | fold resistance | RT-L74V | NL4-3 (RT L74V) | 1
O=C1[C@@H](Cc2ccccc2)NC(=S)N1c1ccccc1 | RT activity | 100 µg/mL | MT-4 |  | inhibition |  |  | 98%
CCc1cc(C#N)cc(C(=O)c2cc(Cl)ccc2OCC(=O)Nc2ccc(S(N)(=O)=O)cc2C)c1 | β-galactosidase |  | HeLa + HELA CD4+ |  | fold resistance | RT-V108I | HXB2 | ~1
COc1ccc(S(=O)(=O)N(CC2CCCC2)C[C@@H](O)CN(CCc2ccccc2)CC(=O)c2ccccc2)cc1 | p24 |  | CEM |  | EC90 |  | IIIB | 1 µM
[2H]C(CCN)(NC(=O)c1ccc(Cl)cc1)C(=O)NC[C@H](O)[C@@]12CC[C@]3(C)[C@H](CC[C@@H]4[C@@]5(C)CC[C@H](OC(=O)[C@H]6C[C@@H](C(=O)O)C6(C)C)C(C)(C)[C@@H]5CC[C@]43C)C1=C(C(C)C)C(=O)C2 | p24 / ELISA |  | MT-2 |  | EC50 |  | 92HT599 | <1 µM
N#Cc1cc(Cl)cc(Oc2c(Br)ccc(CC(=O)Nc3ccc(S(N)(=O)=O)cc3Cl)c2F)c1 |  |  | MT-4 |  | fold resistance | L100I/K103N |  | 1
O=C(C(=O)N1CCN(C(=O)c2occ(Cl)c2Cl)CC1)c1c[nH]c2c(F)ccc(F)c12 | luciferase | 10 µM | HeLa + HELA CD4+/CCR5 |  | inhibition |  |  | >98%
Nc1ccc(S(=O)(=O)N(CCC(O)CN(CC2CCCC2)S(=O)(=O)c2ccccc2)CC2CCCC2)cc1 | p24 |  | CEM |  | EC90 |  | IIIB | 1 µM
CC(C)=CCOc1cc(NC(=S)c2ccoc2C)ccc1Cl | cytopathic effect / XTT |  | CEM + CEM-SS |  | fold resistance | RT-A98G | NL4-3 (RT A98G) | 3.33
Cc1cc(C#N)cc(C(=O)c2cc(Cl)ccc2OCC(=O)Nc2ccc(S(N)(=O)=O)cc2C)c1 | β-galactosidase |  | HeLa + HELA CD4+ |  | fold resistance | RT-K103N Y181C | HXB2 (RT-K103N Y181C) Recombinant | ~1
Cc1cc(CNC(=O)c2nc3n(c(=O)c2O)CCN(C)CC3N(C)C(=O)C(=O)N(C)C)ccc1F | p24 |  | MT-4 |  | EC95 |  |  | <1 µM
Cc1ccc(C)n1-c1ccc(C(=O)O)c(O)c1 | p24 |  | MT-2 |  | EC90 |  | RF X4 CLADE B | 2.65 µM
CCNC(=O)N1CCn2c(nc(C(=O)NCc3ccc(F)cc3)c(O)c2=O)C1(C)C | p24 |  | MT-4 |  | EC95 |  |  | <1 µM
Cc1cc(C#N)cc(C(=O)c2cc(Cl)ccc2OCC(=O)Nc2cnc(S(N)(=O)=O)cc2C)c1 | β-galactosidase |  | HeLa + HELA CD4+ |  | fold resistance | RT-Y181C | HXB2 | ~1
C[C@@H]1CN(C(=O)c2ccc(Br)o2)CCN1C(=O)C(=O)c1c[nH]c2c(F)ccc(F)c12 | luciferase | 10 µM | HeLa + HELA CD4+/CCR5 |  | inhibition |  |  | >98%

Repeating the final 6 entries:

compound	read by	tested at	cells	setting	read-out	mutations	strain or isolate	value
Cc1cc(C#N)cc(C(=O)c2cc(Cl)ccc2OCC(=O)Nc2ccc(S(N)(=O)=O)cc2C)c1	β-galactosidase		HeLa + HELA CD4+		fold resistance	RT-K103N Y181C	HXB2 (RT-K103N Y181C) Recombinant	~1
Cc1cc(CNC(=O)c2nc3n(c(=O)c2O)CCN(C)CC3N(C)C(=O)C(=O)N(C)C)ccc1F	p24		MT-4		EC95			<1 µM
Cc1ccc(C)n1-c1ccc(C(=O)O)c(O)c1	p24		MT-2		EC90		RF X4 CLADE B	2.65 µM
CCNC(=O)N1CCn2c(nc(C(=O)NCc3ccc(F)cc3)c(O)c2=O)C1(C)C	p24		MT-4		EC95			<1 µM
Cc1cc(C#N)cc(C(=O)c2cc(Cl)ccc2OCC(=O)Nc2cnc(S(N)(=O)=O)cc2C)c1	β-galactosidase		HeLa + HELA CD4+		fold resistance	RT-Y181C	HXB2	~1
C[C@@H]1CN(C(=O)c2ccc(Br)o2)CCN1C(=O)C(=O)c1c[nH]c2c(F)ccc(F)c12	luciferase	10 µM	HeLa + HELA CD4+/CCR5		inhibition			>98%

a–b is a range or a potency band. Inhibition is in % at the dose shown (toxicity tests: loss of growth or viability). ECn: concentration that inhibits the pathogen or its effect by n%. An empty or dashed field is not shown. Fold resistance: result on the changed form divided by that on wild type.